Pooled drug test results. Numbers come from NIAID ChemDB, via PubChem.

All rows: growth or infection tests; agent: Streptococcus pneumoniae

MIC50, MIC90 and the like: level of inhibition, or share of isolates inhibited. Neighbouring rows are from separate reports. An empty or dashed field is not shown.

SMILES	read-out	strain or isolate	result
CC[C@H]1OC(=O)[C@@](C)(F)C(=O)[C@H](C)[C@@H](O[C@@H]2O[C@H](C)C[C@H](N(C)C)[C@H]2O)[C@@]2(C)C[C@@H](C)C(=O)[C@H](C)[C@@H](OC/C(=N\OCc3ccc(-n4cccn4)nc3)CO2)[C@]1(C)O	MIC	49619 (erythromycin A-susceptible)	<0.06 µg/mL
CC[C@H]1OC(=O)[C@H](C)C(=O)[C@H](C)[C@@H](O[C@@H]2O[C@H](C)C[C@H](N(C)C)[C@H]2O)[C@@]2(C)C[C@@H](C)C(=NC(C)=O)[C@H](C)[C@@H](OC/C(=N\OCCCc3ccccc3)CO2)[C@]1(C)O	MIC	700906 (erythromycin-resistant-ERM)	0.5 µg/mL
CC[C@H]1OC(=O)[C@H](C)C(=O)[C@H](C)[C@@H](O[C@@H]2O[C@H](C)C[C@H](N(C)C)[C@H]2O)[C@](C)(OC)C[C@@H](C)C(=O)[C@H](C)[C@H]2N(CCCCn3cnc(-c4cccnc4)c3)C(=O)O[C@]12C	MIC90	-	0.25 µg/mL
C[C@H]1NCc2cc(-c3ccc4c(=O)c(C(=O)O)cn(C5CC5)c4c3OC(F)F)ccc21	MIC	R6-G8	0.12 µg/mL
CO/N=C1\CN(c2nc3c(cc2F)c(=O)c(C(=O)O)cn3C2CC2)CC1CN	MIC90	28 strains (ciprofloxacin-resistant)	0.5 µg/mL
CC[C@H]1OC(=O)[C@@](C)(F)C(=O)[C@H](C)[C@@H](O[C@@H]2O[C@H](C)C[C@H](N(C)C)[C@H]2O)[C@@]2(C)C[C@@H](C)C(=N)[C@H](C)[C@@H](OC/C(=N\OCc3ccc(-c4nccs4)nc3)CO2)[C@]1(C)O	MIC	700906 (erythromycin A-resistant)	<0.06 µg/mL
NC1CCN(c2ccc3c(=O)c(C(=O)O)cn(C4CC4)c3c2Cl)C1	MIC	R6	0.25 µg/mL
CC[C@H]1OC(=O)[C@H](C)C(=O)[C@H](C)[C@@H](O[C@@H]2O[C@H](C)C[C@H](N(C)C)[C@H]2O)[C@@]2(C)C[C@@H](C)C(=NC(C)=O)[C@H](C)C(OC/C(=N\OCC#Cc3cccc(N)n3)CO2)[C@]1(C)O	MIC	700906 (erythromycin-resistant-ERM)	<0.06 µg/mL
COCC1=C(C(=O)O)N2C(=O)C(NC(=O)/C(=N/OC)c3csc(N)n3)C2SC1	MIC50	595 strains	≤0.06 µg/mL
CC[C@H]1OC(=O)[C@H](C)C(=O)[C@H](C)[C@@H](O[C@@H]2O[C@H](C)C[C@H](N(C)C)[C@H]2O)[C@@]2(C)C[C@@H](C)C(=NC(C)=O)[C@H](C)[C@@H](OC/C(=N\Oc3ccc(-c4nccs4)nc3)CO2)[C@]1(C)O	MIC	700906 (erythromycin-resistant-ERM)	<0.06 µg/mL
COc1c(N2C[C@@H]3CCCN[C@@H]3C2)c(F)cc2c(=O)c(C(=O)O)cn(C3CC3)c12	MIC90	430 isolates (penicillin-intermediately susceptible)	0.28 µg/mL
CC[C@H]1OC(=O)[C@H](C)C(=O)[C@H](C)[C@@H](O[C@@H]2O[C@H](C)C[C@H](N(C)C)[C@H]2O)[C@@]2(C)C[C@@H](C)C(=NC(C)=O)[C@H](C)[C@@H](OC/C(=N\OCc3cccc(N)n3)CO2)[C@]1(C)O	MIC	7701 (erythromycin-resistant-MEF)	0.25 µg/mL
COc1c(N2CCNC(C)C2)c(F)cc2c(=O)c(C(=O)O)cn(C3CC3)c12	MIC	R6-C11	0.5 µg/mL
CC[C@H]1OC(=O)[C@H](C)C(=O)[C@H](C)[C@@H](O[C@@H]2O[C@H](C)C[C@H](N(C)C)[C@H]2O)[C@@]2(C)C[C@@H](C)C(=NC(C)=O)[C@H](C)[C@@H](OC/C(=N\OCC#Cc3cncnc3)CO2)[C@]1(C)O	MIC	49619 (erythromycin-susceptible)	<0.06 µg/mL
COc1c(N2CCNC(C)C2)c(F)cc2c(=O)c(C(=O)O)cn(C3CC3)c12	MIC90	96 strains	0.06 µg/mL
CC[C@H]1OC(=O)[C@H](C)C(=O)[C@H](C)[C@@H](O[C@@H]2O[C@H](C)C[C@H](N(C)C)[C@H]2O)[C@@]2(C)C[C@@H](C)C(=NC(C)=O)[C@H](C)[C@@H](OC/C(=N\OCc3ccc(-c4ncccn4)s3)CO2)[C@]1(C)O	MIC	49619 (erythromycin A-susceptible)	<0.06 µg/mL
CC[C@H]1OC(=O)[C@H](C)C(=O)[C@H](C)[C@@H](O[C@@H]2O[C@H](C)C[C@H](N(C)C)[C@H]2O)[C@@]2(C)C[C@@H](C)C(=NC(C)=O)[C@H](C)[C@@H](OC/C(=N\Oc3ccc(-c4nnc(N)s4)cc3)CO2)[C@]1(C)O	MIC	700906 (erythromycin-resistant-ERM)	<0.06 µg/mL
NC1CCN(c2c(F)cc3c(=O)c(C(=O)O)cn(C4CC4)c3c2Cl)C1	MIC	R6	0.06 µg/mL
COc1c(N2CCNC(C)C2)c(F)cc2c(=O)c(C(=O)O)cn(C3CC3)c12	MIC50	15 strains	0.39 µg/mL
CN1CCN(c2ccc3c(=O)c(C(=O)O)cn(C4CC4)c3c2)CC1	MIC	R6-G8	32 µg/mL
CCNC(=O)[C@@H](NC(=O)Cc1ccccc1)[C@@H]1N[C@@H](C(=O)NCCNC(=O)[C@@H]2N[C@@H]([C@H](NC(=O)Cc3ccccc3)C(=O)NCC)SC2(C)C)C(C)(C)S1	MIC50	595 strains	≤0.06 µg/mL
CC[C@H]1OC(=O)[C@H](C)C(=O)[C@H](C)[C@@H](O[C@@H]2O[C@H](C)C[C@H](N(C)C)[C@H]2O)[C@@]2(C)C[C@@H](C)C(=NC(C)=O)[C@H](C)[C@@H](OC/C(=N\Oc3ccc(-c4cnccn4)s3)CO2)[C@]1(C)O	MIC	700906 (erythromycin-resistant-ERM)	0.125 µg/mL
CO/N=C1\CN(c2nc3c(cc2F)c(=O)c(C(=O)O)cn3C2CC2)CC1CN	MIC50	19 isolates (penicillin-resistant)	0.016 µg/mL
CC[C@H]1OC(=O)[C@H](C)C(=O)[C@H](C)[C@@H](O[C@@H]2O[C@H](C)C[C@H](N(C)C)[C@H]2O)[C@](C)(OC)C[C@@H](C)C(=O)[C@H](C)[C@H]2N(CCCCn3cnc(-c4cccnc4)c3)C(=O)O[C@]12C	MIC	49619 (erythromycin A-susceptible)	0.015 µg/mL

Repeating the first 2 entries:

SMILES | read-out | strain or isolate | result
CC[C@H]1OC(=O)[C@@](C)(F)C(=O)[C@H](C)[C@@H](O[C@@H]2O[C@H](C)C[C@H](N(C)C)[C@H]2O)[C@@]2(C)C[C@@H](C)C(=O)[C@H](C)[C@@H](OC/C(=N\OCc3ccc(-n4cccn4)nc3)CO2)[C@]1(C)O | MIC | 49619 (erythromycin A-susceptible) | <0.06 µg/mL
CC[C@H]1OC(=O)[C@H](C)C(=O)[C@H](C)[C@@H](O[C@@H]2O[C@H](C)C[C@H](N(C)C)[C@H]2O)[C@@]2(C)C[C@@H](C)C(=NC(C)=O)[C@H](C)[C@@H](OC/C(=N\OCCCc3ccccc3)CO2)[C@]1(C)O | MIC | 700906 (erythromycin-resistant-ERM) | 0.5 µg/mL